Measured values from several laboratories, pooled; numbers as filed in NIAID ChemDB.

All rows: whole-cell or culture tests

Inhibition is in % at the dose shown (toxicity tests: loss of growth or viability).

structure | agent | tested at | method | endpoint | strain or isolate | result
COc1cccc(OC)c1O | Aspergillus flavus | - | agar | MIC50 | - | >1000 µg/mL
C[C@H]1[C@H](O)[C@@H](C)/C=C/C=C/C=C/C=C/C=C/C=C/C=C/[C@H](O[C@@H]2O[C@H](C)[C@@H](O)[C@H](N)[C@@H]2O)C[C@@H]2O[C@](O)(C[C@@H](O)C[C@@H](O)CC[C@H](O)[C@@H](O)C[C@@H](O)CC(=O)O[C@H]1C)C[C@H](O)[C@H]2C(=O)O | Aspergillus fumigatus | - | - | MIC | NFI 4001 | 1 µg/mL
COc1ccccc1O | Aspergillus flavus | - | agar | MIC50 | - | 731 µg/mL
COc1ccc(O)c(C=O)c1 | Aspergillus terreus | - | agar | MIC | UAB698 | 500 µM
C[C@H]1[C@H](O)[C@@H](C)/C=C/C=C/C=C/C=C/C=C/C=C/C=C/[C@H](O[C@@H]2O[C@H](C)[C@@H](O)[C@H](N)[C@@H]2O)C[C@@H]2O[C@](O)(C[C@@H](O)C[C@@H](O)CC[C@H](O)[C@@H](O)C[C@@H](O)CC(=O)O[C@H]1C)C[C@H](O)[C@H]2C(=O)O | Aspergillus fumigatus | - | - | Geometric mean MIC | 60 isolates | 0.94 µg/mL
COc1ccc(/C=N/[n+]2c(-c3ccccc3)[nH]n([C@@H]3O[C@H](COC(C)=O)[C@@H](OC(C)=O)[C@H](OC(C)=O)[C@H]3OC(C)=O)c2=S)cc1 | Aspergillus fumigatus | 1 mg/mL | agar diffusion / agar | zone | - | 0 mm
COc1c(O)cc2oc(-c3ccc(O)cc3)cc(=O)c2c1O | Aspergillus tubingensis | 200 µg/mL | agar diffusion | zone | - | 0 mm
[Al]#[P] | Aspergillus terreus | 1 mg/mL | agar diffusion | zone | - | 4.2 mm
Cc1ccc(N2NOC(=O)C2S(=O)(=O)Nc2ccc(-n3c(-c4cccc(Cl)c4)nc4ccccc4c3=O)cc2)cc1 | Aspergillus clavatus | - | broth dilution | MIC | MTCC323 | 200 µg/mL
O=C(O)c1cc(O)c(O)c(O)c1 | Aspergillus flavus | - | agar | MIC50 | - | >1000 µg/mL
Cc1nc(Nc2ccccc2)nc(C)c1C#N | Aspergillus niger | 50 µg/mL | - | zone | - | 1.7 mm
OC[C@H]1O[C@@H](n2[nH]c(-c3cccnc3)nc2=S)[C@H](O)[C@@H](O)[C@@H]1O | Aspergillus fumigatus | 1 mg/mL | agar diffusion / agar | zone | - | 0 mm
Cc1cc(C)nc(Nc2ccccc2)n1 | Aspergillus niger | 100 µg/mL | - | zone | - | 3.2 mm
CCc1ccc(O)c(OC)c1 | Aspergillus flavus | - | agar | MIC50 | - | 227 µg/mL
CC(C)c1cc2c(c(O)c1O)[C@@]1(C(=O)O)CCCC(C)(C)C1CC2 | Aspergillus tubingensis | - | broth dilution | MIC | - | 200 µg/mL
COc1cccc(C=O)c1OC | Aspergillus terreus | - | agar | MIC | UAB680 | 2000 µM
Cc1ccc(N2NOC(=O)C2S(=O)(=O)Nc2ccc(-n3c(-c4cccc([N+](=O)[O-])c4)nc4ccccc4c3=O)cc2)cc1 | Aspergillus clavatus | 250 µg/mL | agar diffusion | zone | MTCC323 | 24 mm
CN(C/C=C/C#CC(C)(C)C)Cc1cccc2ccccc12 | Aspergillus fumigatus | 2.5 mg/mL | agar diffusion / agar | zone | - | 10–15 mm
CCc1ccc(O)cc1 | Aspergillus flavus | - | agar | MIC50 | - | 132 µg/mL
CC(=O)OC[C@H]1O[C@@H](n2[nH]c(-c3cccnc3)nc2=S)[C@H](OC(C)=O)[C@@H](OC(C)=O)[C@@H]1OC(C)=O | Aspergillus fumigatus | 2.5 mg/mL | agar diffusion / agar | zone | - | 1–5 mm
O=C/C=C/c1ccccc1 | Aspergillus terreus | - | agar | MIC | UAB673 | 500 µM
Cc1ccc(N2NOC(=O)C2S(=O)(=O)Nc2nc(-c3ccc(Cl)cc3Cl)cs2)cc1 | Aspergillus clavatus | - | broth dilution | MIC | MTCC323 | 500 µg/mL
C[C@H]1[C@H](O)[C@@H](C)/C=C/C=C/C=C/C=C/C=C/C=C/C=C/[C@H](O[C@@H]2O[C@H](C)[C@@H](O)[C@H](N)[C@@H]2O)C[C@@H]2O[C@](O)(C[C@@H](O)C[C@@H](O)CC[C@H](O)[C@@H](O)C[C@@H](O)CC(=O)O[C@H]1C)C[C@H](O)[C@H]2C(=O)O | Aspergillus fumigatus | 16 µg/mL | agar | inhibition | W73355 | 100%
OC(Cn1cncn1)(Cn1cncn1)c1ccc(F)cc1F | Aspergillus oryzae | - | broth dilution | MFC100 | CCAM 080006 | 5 µg/mL
Cc1ccc(N2NOC(=O)C2S(=O)(=O)Nc2nc(-c3ccc(Cl)cc3)cs2)cc1 | Aspergillus clavatus | - | broth dilution | MIC | MTCC323 | 500 µg/mL
CC(=O)OC[C@H]1O[C@@H](n2nc(-c3cccnc3)n(/N=C/c3ccc(Cl)cc3)c2=S)[C@H](OC(C)=O)[C@@H](OC(C)=O)[C@@H]1OC(C)=O | Aspergillus fumigatus | 5 mg/mL | agar diffusion / agar | zone | - | 1–5 mm
OC(Cn1cncn1)(Cn1cncn1)c1ccc(F)cc1F | Aspergillus fumigatus | - | - | MIC | NFI 0159 | >128 µg/mL
Cc1nc(Nc2ccccc2)nc2c1C(=N)C(C#N)CN(Cc1ccccc1)C2 | Aspergillus niger | 10 µg/mL | - | zone | - | 1 mm

Repeating the final 2 entries:

| structure | agent | tested at | method | endpoint | strain or isolate | result |
|---|---|---|---|---|---|---|
| OC(Cn1cncn1)(Cn1cncn1)c1ccc(F)cc1F | Aspergillus fumigatus | - | - | MIC | NFI 0159 | >128 µg/mL |
| Cc1nc(Nc2ccccc2)nc2c1C(=N)C(C#N)CN(Cc1ccccc1)C2 | Aspergillus niger | 10 µg/mL | - | zone | - | 1 mm |

Zones are inhibition diameters on agar. Neighbouring rows are from separate reports. Two numbers with a dash give a range or band. Blank or dashed fields: not listed here. A number after MIC or MFC names an inhibition level or a share of isolates.